# PSTVd loop 6 mutant pool in Nicotiana benthamiana

From the data files of Wu et al. 2024, doi:10.1371/journal.ppat.1012142.

Region: loop 6 of PSTVd (intermediate strain), upper and lower strand joined, each 5' to 3', the first 5 letters being the upper strand, closing pairs included. Wild type: UGACCGCGAG. Varied positions (N): UNNNCGNNNG.

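A pool of all variants was put on leaves of three Nicotiana benthamiana plants. Progeny were sequenced from the inoculated region (day 5), the margin of the inoculated leaf (day 10) and systemic leaves (day 12).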

Values are reads per thousand in the sample; higher means more abundant, 0 means not found. Each site shows the three plants. "Pool" is the share in the plasmid pool used as inoculum, on the same scale. The inoculated region was read from the minus strand, the other sites from the plus strand. IR is the inoculated region, LM the leaf margin, Sys the systemic leaves. With 36,220-57,551 reads a sample, very low values are single reads. Sequences that differ at fixed positions probably stem from PCR or sequencing errors, and defective variants can be carried along by functional ones. For reference, wild type rose from 20.7 per thousand in the pool to 195, 198, 203 (inoculated region), 629, 591, 734 (leaf margin) and 942, 870, 868 (systemic leaves).

| sequence | pool | IR | LM | Sys |
|---|---|---|---|---|
| UUGUCGGCUG | 0.431 | 0.0521 / 0.0898 / 0.111 | 0 / 0.0252 / 0 | 0 / 0 / 0 |
| UUGUCGGGAG | 0.301 | 0.678 / 0.826 / 0.461 | 0.221 / 0.101 / 0.0928 | 0 / 0 / 0 |
| UUGUCGGGCG | 0.405 | 0.174 / 0.126 / 0.0369 | 0.0276 / 0 / 0 | 0 / 0 / 0 |
| UUGUCGGGGG | 0.196 | 0.174 / 0.0539 / 0.0553 | 0.0276 / 0 / 0 | 0 / 0 / 0 |
| UUGUCGGGUG | 0.235 | 0.139 / 0.0719 / 0.0922 | 0 / 0 / 0 | 0 / 0 / 0 |
| UUGUCGGUAG | 0.288 | 0.0695 / 0.0539 / 0.111 | 0 / 0 / 0 | 0 / 0 / 0 |
| UUGUCGGUCG | 0.196 | 0.104 / 0.108 / 0.0738 | 0.0552 / 0 / 0 | 0 / 0 / 0 |
| UUGUCGGUGG | 0.445 | 0.104 / 0.0539 / 0.0922 | 0 / 0.0757 / 0 | 0 / 0 / 0 |
| UUGUCGGUUG | 0.209 | 0.104 / 0.144 / 0.0922 | 0 / 0 / 0.0232 | 0 / 0 / 0 |
| UUGUCGUAAG | 0.196 | 0.156 / 0.0359 / 0.148 | 0.0276 / 0 / 0.0232 | 0 / 0 / 0 |
| UUGUCGUACG | 0.209 | 0.139 / 0.0719 / 0.111 | 0.0276 / 0 / 0.0232 | 0 / 0 / 0 |
| UUGUCGUAGG | 0.301 | 0.0348 / 0.144 / 0.0184 | 0.0276 / 0 / 0 | 0 / 0 / 0 |
| UUGUCGUAUG | 0.601 | 0.156 / 0.108 / 0.148 | 0.442 / 0 / 0 | 0 / 0 / 0 |
| UUGUCGUCAG | 0.301 | 0.0174 / 0.0898 / 0.0738 | 0 / 0 / 0 | 0 / 0 / 0 |
| UUGUCGUCCG | 0.288 | 0.156 / 0.198 / 0.111 | 0 / 0 / 0.0232 | 0 / 0 / 0 |
| UUGUCGUCGG | 0.275 | 0.122 / 0.126 / 0.0738 | 0 / 0 / 0 | 0 / 0 / 0 |
| UUGUCGUCUG | 0.458 | 0.174 / 0.0359 / 0.129 | 0 / 0 / 0 | 0 / 0 / 0 |
| UUGUCGUGAG | 0.340 | 0.0695 / 0.0719 / 0.221 | 0 / 0 / 0.0232 | 0 / 0 / 0 |
| UUGUCGUGCG | 0.105 | 0.0869 / 0.0180 / 0.0553 | 0 / 0 / 0.0232 | 0 / 0 / 0 |
| UUGUCGUGGG | 0.327 | 0.0869 / 0.162 / 0.0553 | 0 / 0 / 0 | 0 / 0 / 0 |
| UUGUCGUGUG | 0.353 | 0.0869 / 0.144 / 0.240 | 0.0276 / 0 / 0.0232 | 0 / 0 / 0 |
| UUGUCGUUAG | 0.536 | 0.104 / 0.0898 / 0.0553 | 0 / 0 / 0 | 0 / 0 / 0.0205 |
| UUGUCGUUCG | 0.314 | 0.104 / 0.144 / 0.129 | 0.0276 / 0 / 0.0464 | 0 / 0 / 0 |
| UUGUCGUUGG | 0.601 | 0.139 / 0.0719 / 0.0738 | 0 / 0 / 0 | 0 / 0 / 0.0410 |
| UUGUCGUUUG | 0.431 | 0.104 / 0.0539 / 0.0738 | 0 / 0 / 0.0232 | 0 / 0 / 0 |
| UUGUCUAGUG | 0.0131 | 0 / 0 / 0 | 0 / 0 / 0 | 0 / 0 / 0 |
| UUGUCUGUGG | 0.0131 | 0 / 0 / 0 | 0 / 0 / 0 | 0 / 0 / 0 |
| UUGUCUUUUG | 0.0131 | 0 / 0 / 0 | 0 / 0 / 0 | 0 / 0 / 0 |
| UUUACACAGG | 0.0131 | 0 / 0 / 0 | 0 / 0 / 0 | 0 / 0 / 0 |
| UUUACGAAAG | 0.209 | 0.174 / 0.108 / 0.0922 | 0 / 0 / 0 | 0 / 0 / 0 |
| UUUACGAACG | 0.105 | 0.174 / 0.162 / 0.0738 | 0 / 0 / 0 | 0 / 0 / 0 |
| UUUACGAAGG | 0.105 | 0.104 / 0.108 / 0.0922 | 0 / 0 / 0 | 0 / 0 / 0 |
| UUUACGAAUG | 0.275 | 0.0869 / 0.126 / 0.0922 | 0 / 0 / 0.0464 | 0 / 0 / 0 |
| UUUACGACAG | 0.157 | 0.0348 / 0.180 / 0.0369 | 0.0552 / 0 / 0 | 0 / 0 / 0 |
| UUUACGACCG | 0.170 | 0.139 / 0.0719 / 0.0553 | 0 / 0 / 0 | 0 / 0 / 0 |
| UUUACGACGG | 0.105 | 0.0521 / 0.0719 / 0.111 | 0.0276 / 0 / 0.0232 | 0 / 0 / 0 |
| UUUACGACUG | 0.327 | 0.0695 / 0.0898 / 0.0369 | 0 / 0 / 0 | 0 / 0 / 0 |
| UUUACGAGAG | 0.261 | 0.730 / 0.719 / 0.516 | 0.138 / 0.126 / 0.0696 | 0 / 0 / 0 |
| UUUACGAGCG | 0.222 | 0.104 / 0.0898 / 0.0553 | 0 / 0 / 0 | 0 / 0 / 0 |
| UUUACGAGGG | 0.170 | 0.122 / 0.0898 / 0.0738 | 0 / 0 / 0 | 0 / 0 / 0 |
| UUUACGAGUG | 0.248 | 0.156 / 0.144 / 0.0369 | 0 / 0 / 0 | 0 / 0 / 0 |
| UUUACGAUAG | 0.327 | 0.174 / 0.108 / 0.111 | 0 / 0 / 0.139 | 0 / 0 / 0 |
| UUUACGAUCG | 0.275 | 0.139 / 0.0539 / 0.0738 | 0 / 0 / 0 | 0 / 0 / 0 |
| UUUACGAUGG | 0.314 | 0.0869 / 0.126 / 0.0184 | 0 / 0 / 0 | 0 / 0 / 0 |
| UUUACGAUUG | 0.183 | 0.156 / 0.0898 / 0.0738 | 0 / 0 / 0.0232 | 0 / 0 / 0 |
| UUUACGCAAG | 0.144 | 0.695 / 0.719 / 0.664 | 0 / 0 / 0 | 0 / 0.0202 / 0 |
| UUUACGCACG | 0.131 | 0.209 / 0.0359 / 0.0184 | 0 / 0 / 0 | 0 / 0 / 0 |
| UUUACGCAGG | 0.209 | 0.139 / 0.126 / 0.0738 | 0.0552 / 0 / 0.0232 | 0 / 0 / 0 |
| UUUACGCAUG | 0.105 | 0.104 / 0.126 / 0.0738 | 0 / 0 / 0 | 0 / 0 / 0 |
| UUUACGCCAG | 0.196 | 0.191 / 0.108 / 0.184 | 0 / 0 / 0 | 0 / 0 / 0 |
| UUUACGCCCG | 0.340 | 0.174 / 0.0719 / 0.111 | 0.0276 / 0 / 0 | 0 / 0 / 0 |
| UUUACGCCGG | 0.170 | 0.0348 / 0.108 / 0.0184 | 0 / 0 / 0.0232 | 0 / 0 / 0 |
| UUUACGCCUG | 0.314 | 0.0869 / 0.108 / 0.0922 | 0 / 0 / 0.0232 | 0 / 0 / 0 |
| UUUACGCGAA | 0.0131 | 0.504 / 0.808 / 0.479 | 0.0276 / 0.101 / 0.0696 | 0 / 0 / 0 |
| UUUACGCGAG | 0.105 | 0.139 / 0.126 / 0.184 | 0.166 / 0.177 / 0.0232 | 0 / 0.0606 / 0.0205 |
| UUUACGCGAU | 0.0131 | 0 / 0.108 / 0.0738 | 0.0276 / 0 / 0.0232 | 0 / 0 / 0 |
| UUUACGCGCG | 0.170 | 0.122 / 0.198 / 0.0553 | 0 / 0 / 0.0232 | 0 / 0 / 0 |
| UUUACGCGGG | 0.275 | 0.209 / 0.0898 / 0.129 | 0.0276 / 0 / 0.0232 | 0 / 0 / 0 |
| UUUACGCGUG | 0.301 | 0.104 / 0.0898 / 0.0922 | 0 / 0 / 0.0464 | 0 / 0 / 0 |
| UUUACGCUAG | 0.105 | 0.122 / 0.0359 / 0.129 | 0.0276 / 0 / 0 | 0 / 0 / 0 |
| UUUACGCUCG | 0.222 | 0.104 / 0.126 / 0.111 | 0 / 0 / 0 | 0 / 0 / 0 |
| UUUACGCUGG | 0.105 | 0.122 / 0.0719 / 0.129 | 0.0552 / 0 / 0 | 0 / 0 / 0 |
| UUUACGCUUG | 0.196 | 0.104 / 0.0719 / 0.0922 | 0 / 0 / 0.0232 | 0 / 0 / 0 |
| UUUACGGAAG | 0.144 | 1.01 / 0.611 / 0.332 | 0.0828 / 0 / 0.0928 | 0 / 0 / 0 |
| UUUACGGACG | 0.248 | 0.747 / 0.539 / 0.479 | 0.0828 / 0.0504 / 0.0696 | 0 / 0.0606 / 0.0410 |
| UUUACGGAGG | 0.157 | 0.104 / 0.0898 / 0.148 | 0 / 0 / 0 | 0 / 0 / 0 |
| UUUACGGAUG | 0.183 | 0.104 / 0.126 / 0.129 | 0.0276 / 0 / 0 | 0 / 0 / 0 |
| UUUACGGCAG | 0.261 | 0.851 / 0.629 / 0.498 | 0.0552 / 0.101 / 0.0696 | 0 / 0 / 0 |